# The other results are listed elsewhere or left out. Only a part of the results of these assays is listed, not drawn at random. Calls of active or inactive are those of the source. The rule behind the calls is not given here.
# Target: T1, Aberrant vpr protein (Human immunodeficiency virus 1) (UniProt Q77YF9)
# T1 sequence (whole entry): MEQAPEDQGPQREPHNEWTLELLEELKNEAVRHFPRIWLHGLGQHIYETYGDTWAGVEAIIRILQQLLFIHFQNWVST
# Assay: qHTS Assay for Inhibitors of the HIV-1 protein Vpr.
# Format: functional
row,SMILES,Potency
1,COc1ccc2nc(NP(=O)(c3ccccc3)c3ccccc3)sc2c1,inactive
2,O=C(OC1CN2CCC1CC2)c1cccc([N+](=O)[O-])c1 (centres undefined),inactive
3,O=P1(Nc2ccc(Br)cn2)COc2ccccc2OC1,inactive
4,Cc1ccccc1CN(C)C(=O)COC(=O)C(O)(c1ccccc1)c1ccccc1,inactive
